Measurements reported in PubChem BioAssay AID504761 (Drosophila RNAi Screening Center, 2011).
Screen: 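Fly genes whose silencing reduces dengue virus type 2 infection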 (primary screen). System: D.Mel-2 cells from Drosophila. Reagent: long dsRNA against Drosophila genes. Conditions: infection with dengue virus type 2; dose and infection time not stated. Measurement: 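Cells stained for dengue envelope protein and imaged; percent of infected cells per well on duplicate plates, ranked by infection, with stained nuclei counted for cell number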. Reading the numbers: infection score: higher = more virus-infected cells; cell count: higher = more cells in the well. Active means: 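Low infection ranks in the two replicates (chance level up to 0.065) followed by a retest with a 1.5-fold or larger significant decrease, p below 0.05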. Meaning of the calls: active = confirmed: knock-down lowers infection; inactive = not picked or not confirmed.
The screen tested about 22,000 reagents; this is an unselected part of those with a known target gene and a result. Over the whole deposit, 116 (0.52%) got an active call. 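Calls depend on retest data that are not deposited; infection was ranked per plate without normalising between plates; the unit of the infection score is not given.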 Raw values vary from plate to plate and are shown uncorrected. Reagent sequences are not shown. Not given: the amount of reagent, the time to read-out.

Which result is listed for rho [DRSC08734]?
infection score, replicate 1: 5.38; infection score, replicate 2: 3.76; cell count, replicate 1: 5980; cell count, replicate 2: 6170; Call: inactive

For Galk [DRSC10500], what was measured?
infection score, replicate 1: 7.47; infection score, replicate 2: 9.04; cell count, replicate 1: 4981; cell count, replicate 2: 3397; Call: inactive

With Galk [DRSC26987], how do the results read?
infection score, replicate 1: 10.5; infection score, replicate 2: 6.49; cell count, replicate 1: 6432; cell count, replicate 2: 6437; Call: inactive

What did the screen give for Swim [DRSC04334]?
infection score, replicate 1: 12.2; infection score, replicate 2: 20.2; cell count, replicate 1: 5982; cell count, replicate 2: 5679; Call: inactive

With CG7564 [DRSC10880], what was measured?
infection score, replicate 1: 3.17; infection score, replicate 2: 3.87; cell count, replicate 1: 5778; cell count, replicate 2: 5292; Call: inactive

Which result is listed for CG7564 [DRSC28225]?
infection score, replicate 1: 1.63; infection score, replicate 2: 4.57; cell count, replicate 1: 553; cell count, replicate 2: 1577; Call: inactive

For CG32536 [DRSC28001], what was measured?
infection score, replicate 1: 19; infection score, replicate 2: 7.54; cell count, replicate 1: 4584; cell count, replicate 2: 6778; Call: inactive

How did the screen score CG12279 [DRSC14495]?
infection score, replicate 1: 6.43; infection score, replicate 2: 7.02; cell count, replicate 1: 5974; cell count, replicate 2: 6523; Call: inactive

Which result is listed for Inos [DRSC07655]?
infection score, replicate 1: 3.71; infection score, replicate 2: 9.99; cell count, replicate 1: 5986; cell count, replicate 2: 6727; Call: inactive

Which result is listed for Inos [DRSC27019]?
infection score, replicate 1: 16.5; infection score, replicate 2: 13.4; cell count, replicate 1: 6428; cell count, replicate 2: 6188; Call: inactive

Which result is listed for Ir84a [DRSC12510]?
infection score, replicate 1: 5.18; infection score, replicate 2: 8.47; cell count, replicate 1: 6724; cell count, replicate 2: 6130; Call: inactive

For Ir84a [DRSC27487], what was measured?
infection score, replicate 1: 4; infection score, replicate 2: 7.59; cell count, replicate 1: 6530; cell count, replicate 2: 6327; Call: inactive

Part of the list above, reformatted.
gene knocked down,dsRNA,"infection score, replicate 1","infection score, replicate 2","cell count, replicate 1","cell count, replicate 2",Call
CG7564,DRSC28225,1.63,4.57,553,1577,inactive
CG32536,DRSC28001,19,7.54,4584,6778,inactive

The listing continues:
With Dic4 [DRSC10317], what was measured?
infection score, replicate 1: 5.82; infection score, replicate 2: 2.47; cell count, replicate 1: 6718; cell count, replicate 2: 6682; Call: inactive

For CG8870 [DRSC16452], how do the results read?
infection score, replicate 1: 8.16; infection score, replicate 2: 19.3; cell count, replicate 1: 6412; cell count, replicate 2: 6564; Call: inactive

What is on record for Tengl3 [DRSC22288]?
infection score, replicate 1: 3.06; infection score, replicate 2: 5.1; cell count, replicate 1: 5419; cell count, replicate 2: 6112; Call: inactive

For Tengl3 [DRSC27773], what was measured?
infection score, replicate 1: 1.49; infection score, replicate 2: 23.7; cell count, replicate 1: 6798; cell count, replicate 2: 5893; Call: inactive

For jdp [DRSC16975], how do the results read?
infection score, replicate 1: 3.5; infection score, replicate 2: 12.4; cell count, replicate 1: 5636; cell count, replicate 2: 6464; Call: inactive

For jdp [DRSC29394], how do the results read?
infection score, replicate 2: 12.3; cell count, replicate 1: 32; cell count, replicate 2: 1724; Call: inactive

What did the screen give for Ir64a [DRSC09759]?
infection score, replicate 1: 3.63; infection score, replicate 2: 3.37; cell count, replicate 1: 6342; cell count, replicate 2: 6142; Call: inactive

How did the screen score Ir64a [DRSC09760]?
infection score, replicate 1: 14.8; infection score, replicate 2: 3.17; cell count, replicate 1: 5922; cell count, replicate 2: 5451; Call: inactive

With Unr [DRSC10761], how do the results read?
infection score, replicate 1: 1.08; infection score, replicate 2: 1.43; cell count, replicate 1: 6846; cell count, replicate 2: 7078; Call: active

How did the screen score Unr [DRSC26920]?
infection score, replicate 1: 5.97; infection score, replicate 2: 7.11; cell count, replicate 1: 6395; cell count, replicate 2: 6542; Call: inactive
